Results deposited as PubChem BioAssay AID504761 (Drosophila RNAi Screening Center, 2011).
The screen tested about 22,000 reagents; this is a random part of those that have a named target and a result. Over the whole deposit, 116 (0.52%) got an active call. 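Calls depend on retest data that are not deposited; infection was ranked per plate without normalising between plates; the unit of the infection score is not given.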 Raw values are not corrected between plates. Not given: the amount of reagent, the time to read-out.

Test: 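Insect host genes that dengue virus relies on to spread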 (primary screen)
Cell system: D.Mel-2 cells from Drosophila
Reagents: long dsRNA against Drosophila genes
Treatment: infection with dengue virus type 2; dose and infection time not stated
Read-out: 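Per well on two replicate plates, imaging gave the percent of cells positive for viral envelope protein, ranked by infection, and a nuclear count of cells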
Reading the numbers: infection score: higher = more virus-infected cells; cell count: higher = more cells in the well
Rule for the call: 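Very low infection ranking in both replicate wells (chance probability at most 0.065), then a retest showing infection dropped 1.5-fold or more at p below 0.05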
Meaning of the calls: active = confirmed: knock-down lowers infection; inactive = not picked or not confirmed

| gene knocked down | dsRNA | infection score, replicate 1 | infection score, replicate 2 | cell count, replicate 1 | cell count, replicate 2 | call |
| --- | --- | --- | --- | --- | --- | --- |
| TM9SF3 | DRSC09747 | 1.27 | 2.58 | 5752 | 5816 | inactive |
| Gr64f | DRSC08447 | 1.48 | 10.7 | 6350 | 5843 | inactive |
| Gr64f | DRSC25964 | 4.44 | 3.24 | 6313 | 6986 | inactive |
| Tie | DRSC08104 | 1.43 | 1.94 | 6086 | 5257 | inactive |
| Tie | DRSC08702 | 3.33 | 3.48 | 5368 | 5611 | inactive |
| CaMKI | DRSC17162 | 1.2 | 6.83 | 6190 | 6238 | inactive |
| TwdlQ | DRSC23107 | 3.28 | 9.95 | 6624 | 7429 | inactive |
| TwdlQ | DRSC27737 | 18.8 | 13.5 | 6664 | 6566 | inactive |
| CG31360 | DRSC13255 | 7.22 | 6.19 | 5764 | 4714 | inactive |
| COX6AL | DRSC21454 | 4.54 | 4.43 | 6392 | 6659 | inactive |
| CG7882 | DRSC04899 | 8.6 | 8.16 | 7024 | 6800 | inactive |
| Rae1 | DRSC04577 | 10.3 | 28.7 | 5644 | 4667 | inactive |
| dsx-c73A | DRSC09435 | 0.41 | 0.7 | 6129 | 6245 | inactive |
| dsx-c73A | DRSC09914 | 2.44 | 3.38 | 6023 | 6542 | inactive |
| dsx-c73A | DRSC10429 | 2.31 | 14.2 | 6323 | 5702 | inactive |
| CG32590 | DRSC19594 | 9.62 | 2.27 | 6528 | 6380 | inactive |
| simj | DRSC10942 | 7.27 | 5.21 | 6670 | 6735 | inactive |
| simj | DRSC25345 | 8.52 | 0.61 | 6265 | 6182 | inactive |
| Tsp42Eh | DRSC06190 | 18 | 16.9 | 6046 | 5414 | inactive |
| Prosbeta7 | DRSC12186 | 1.08 | 0.73 | 831 | 546 | inactive |
| Cyp12a5 | DRSC16621 | 1.24 | 1.41 | 6630 | 6589 | inactive |
| Cyp12a5 | DRSC24826 | 7.88 | 0.68 | 5963 | 6212 | inactive |
| CG32228 | DRSC22296 | 1.19 | 10.8 | 5728 | 6053 | inactive |

4 entries from above, sorted by “cell count, replicate 1”, highest first:
| gene knocked down | dsRNA | infection score, replicate 1 | infection score, replicate 2 | cell count, replicate 1 | cell count, replicate 2 | call |
| --- | --- | --- | --- | --- | --- | --- |
| simj | DRSC10942 | 7.27 | 5.21 | 6670 | 6735 | inactive |
| CG32590 | DRSC19594 | 9.62 | 2.27 | 6528 | 6380 | inactive |
| simj | DRSC25345 | 8.52 | 0.61 | 6265 | 6182 | inactive |
| Tsp42Eh | DRSC06190 | 18 | 16.9 | 6046 | 5414 | inactive |
